The amount applied is not stated for every result.
Test system: THP1 cells
Assay type: cell-based, human
Conditions: 24 hours, relative to vehicle

| Compound | Common upregulated genes following treatment with CA-4948 and PF-06650833 |
| --- | --- |
| Cc1cc(-c2nc(C(=O)Nc3cc4oc(N5CCOCC5)nc4nc3N3CC[C@@H](O)C3)co2)ccn1 [CA-4948, emavusertib] | 91 |
| CC[C@@H]1[C@H](F)C(=O)N[C@@H]1COc1nccc2cc(C(N)=O)c(OC)cc12 [PF-06650833, Zimlovisertib] | 91 |
